Common to all, as to type: cell-based
Test [1] relates to SARS-CoV-2 Alpha (B.1.1.7). Nature of the test: SARS-CoV-2 IF assay, HeLa-ACE2 (Method 1). The following applies: 2% FBS, corrected to 1/4 the apparent value.
The subject of test [2] is SARS-CoV-2 Beta (B.1.351). Nature of the test: SARS-CoV-2 IF assay, HeLa-ACE2 (Method 1). The following applies: 2% FBS, corrected to 1/4 the apparent value.
The next test relates to Norwalk Virus. Nature of the test: Norwalk virus CPE assay, HG23 (Method 6). The following applies: Norovirus Norwalk Virus, 2% FBS, @ 1.25 μM (concentration corrected to 1/4).

The structures appear in SMILES notation.

Results on one compound are retold here after patent US20260124192A1, “COMPOUNDS, COMPOSITIONS, AND METHODS OF TREATING RNA VIRAL INFECTIONS” (priority 2024, published 2026).

As usually defined, the EC50 is the concentration giving half of the maximal effect. For the compound `Cc1c(-c2ccc(O)cc2)n(Cc2ccc(OCCN3CCCCC3)cc2)c2ccc(O)cc12` [Pipendoxifene], the concentration giving a half-maximal response (EC50) in test [1] (SARS-CoV-2 Alpha (B.1.1.7)) stood at 299 nM; in test [1] (Severe acute respiratory syndrome coronavirus 2, HeLa-ACE2, SARS-CoV-2 Alpha (B.1.1.7)), 208 nM; in test [2] (SARS-CoV-2 Beta (B.1.351)) it was 167 nM; in test [2] (Severe acute respiratory syndrome coronavirus 2, HeLa-ACE2, SARS-CoV-2 Beta (B.1.351)), 263 nM. Moreover, in the test with Norwalk Virus, the “percent effect printed in column Corrected EC50 (μM)” value was found to be 31% @ 1.25.
